Compound potency records, mixed from different reports. Data source: NIAID ChemDB in PubChem.

Common to all: growth or infection tests; species: Mycobacterium avium

An empty or dashed field is not shown. MIC50, MIC90 and the like: level of inhibition, or share of isolates inhibited. Conditions beyond the fields shown may differ between rows. ECn is the concentration giving n% inhibition of infection, replication or growth.

smiles,read-out,read by,cells,conditions,strain,result
O=c1oc2ccc(Br)cc2c(=O)n1-c1ccc(Cl)c(Cl)c1,MIC,,,,CNCTC MY330/88,16 µM
O=C(/C=C/c1ccccc1)Nc1ccccc1Cn1ccnc1,MIC,,,,103317,>16 µg/mL
Cc1ccc2oc(=O)n(-c3ccc(Cl)c(Cl)c3)c(=S)c2c1,MIC,,,14 d,MY330/88,8 µM
C=CCSc1ncnc2ccccc12,MIC,,,,CNCTC MY80/72,>1000 µM
CCCCCCCCCCCCCC(C(=O)O)c1ccccc1,MIC,,,,,2.5 µM
Oc1ccccc1C(=S)NCc1ccccc1,MIC,,,,MY330/88,1 µg/mL
O=C(Nc1ccc(CN2CCOCC2)cc1)c1ccc(Cl)cc1,MIC,,,,103317,>16 µg/mL
CC1COc2c(N3CCN(C)CC3)c(F)cc3c(=O)c(C(=O)O)cn1c23,MIC90,,,,18 strains,50 µg/mL
Cc1cccc(O)c1C(=S)NCc1ccc(Cl)cc1,MIC,,,,MY330/88,1 µg/mL
CCS/C(N)=N/N=C/c1ccccc1O,MIC,,,,CNCTC MY66/72,8 µM
O=C(Nc1ccc(Cl)c(Cl)c1)c1cc(F)ccc1O,MIC,,,,CNCTC MY330/88,8 µM
O=C(/C=C/c1ccccc1)Nc1ccccc1CN1CCOCC1,MIC,,,,103317,>16 µg/mL
Cc1ccc(C(=O)CC(N/N=C(\N)c2ccccn2)c2ccncc2)cc1,MIC,,,,485,16 µg/mL
O=c1oc2ccc(Cl)cc2c(=S)n1-c1ccc(C(F)(F)F)cc1,MIC,,,21 d,MY330/88,32 µM
O=C(NCc1ccccc1)c1cc(Br)cc(Br)c1O,MIC,,,21 d,ATCC 25291,125 µM
CC[C@H]1OC(=O)[C@H](C)C(=O)[C@H](C)[C@@H](O[C@@H]2O[C@H](C)C[C@H](N(C)C)[C@H]2O)[C@](C)(OC)C[C@@H](C)C(=O)[C@H](C)[C@H]2N(NCCCc3ccnc4ccccc34)C(=O)O[C@]12C,MIC,,,,Isolate 1295,10 µg/mL
O=C(Nc1cccc(Cn2ccnc2)c1)c1ccc(Cl)cc1,MIC,,,,103317,>16 µg/mL
COc1ccc2oc(=O)n(-c3ccc(F)cc3)c(=S)c2c1,MIC,,,14 d,MY330/88,32 µM
c1ccc(CSc2ncnc3ccccc23)cc1,MIC,,,,CNCTC MY80/72,63 µM
O=C(Nc1cccc(Cl)c1)c1cc(Br)ccc1O,MIC,,,,CNCTC MY330/88,31 µM
CCCCCCSc1ncnc2ccccc12,MIC,,,,CNCTC MY80/72,125 µM
Cc1nc2ccc(Cl)cc2c(=S)n1-c1ccc(Br)cc1,MIC,,,,MY330/88,>31 µg/mL
Cc1ccc2oc(=O)n(-c3cccc(Cl)c3)c(=S)c2c1,MIC,,,21 d,MY330/88,4 µM
CC(C)(C)c1ccc(CNC(=S)c2c(O)cc(Cl)cc2Cl)cc1,MIC,,,,MY330/88,62.5 µg/mL
Cc1ccc(C(=O)NCc2cccnc2)c(O)c1,MIC,,,21 d,ATCC 25291,1000 µM
CC(C)c1ccc(N2C(=S)c3cc(Cl)ccc3NC2(C)C)cc1,MIC,,,,MY330/88,>62.5 µg/mL
C/C=C/CCC(C)CC(=O)O,MIC,,,,,>1000 µM
CC(=O)N1N=C(c2ccncc2)OC1c1ccc(F)c(F)c1,MIC,,,,,<12.5 µg/mL
O=c1oc2ccc(Br)cc2c(=S)n1-c1ccc(C(F)(F)F)cc1,MIC,,,21 d,MY330/88,62.5 µM
O=C(Nc1cccc(CN2CCOCC2)c1)c1ccc(-c2ccccc2)cc1,MIC,,,,103317,>16 µg/mL
O=C(Nc1cccc(F)c1)c1cc(F)ccc1O,MIC,,,,CNCTC MY330/88,31 µM
CCS/C(N)=N/N=C/c1ccc2ccccc2n1,MIC,,,,CNCTC D5/93,>1000 µM
Cc1ccc2oc(=S)n(-c3cccc(F)c3)c(=S)c2c1,MIC,,,21 d,MY330/88,8 µM
N/C(=N\NC(CC(=O)c1ccc(Cl)cc1)c1ccncc1)c1ccccn1,MIC,,,,485,8 µg/mL
O=C(Nc1cccc(F)c1)c1cc(Cl)ccc1O,MIC,,,,CNCTC MY330/88,31 µM
C=CCS/C(N)=N\N=C\c1ccc(F)cc1,MIC50,,,,Clinical isolates,6.25 µg/mL
Cc1ccc(-n2c(=O)oc3cc(C)ccc3c2=O)cc1,MIC,,,,CNCTC MY330/88,31 µM
Cc1ccc(O)c(C(=O)NCc2ccccc2)c1,MIC,,,,MY330/88,62.5 µg/mL
N/C(=N\NC(CC(=O)c1ccc(Cl)c(Cl)c1)c1ccccn1)c1ccccn1,MIC,,,,485,8 µg/mL
O=C(Nc1ccc(CN2CCOCC2)cc1)c1ccc(-c2ccccc2)cc1,MIC,,,,103317,>16 µg/mL
COc1ccc(-n2c(C)nc3ccc(Cl)cc3c2=S)cc1,MIC,,,,MY330/88,62.5 µg/mL
Oc1cc(Br)cc(Br)c1C(=S)NCc1ccc(C(F)(F)F)cc1,MIC,,,,MY330/88,32 µg/mL
COc1ccc(C(=O)NCc2ccccc2)c(O)c1,MIC,,,14 d,ATCC 25291,125 µM
CCCCCCCCC#Cc1cn([C@H]2C[C@H](O)[C@@H](CO)O2)c(=O)nc1N,MIC90,,,,,>100 µg/mL
CN1CCN(Cc2ccc(NC(=O)/C=C/c3ccccc3)cc2)CC1,MIC,,,,103317,>16 µg/mL
Oc1cc(Br)ccc1C(=S)NCc1cccc(Br)c1,MIC,,,,MY330/88,4 µg/mL
Cc1ccc(-n2c(=O)oc3ccc(F)cc3c2=O)cc1,MIC,,,,CNCTC MY330/88,31 µM
N/C(=N\NC(CC(=O)c1ccccc1)c1cccnc1)c1ccccn1,MIC,,,,485,8 µg/mL
Cc1ccc(C(=O)Nc2cccc([N+](=O)[O-])c2)c(O)c1,MIC,,,,CNCTC MY330/88,31 µM
CCC(C(=O)O)c1ccccc1,MIC,,,,,>100 µM
O=C(NCc1cccnc1)c1ccccc1O,MIC,,,21 d,ATCC 25291,500 µM
CN1CCN(Cc2ccc(NC(=O)c3ccc(Cl)cc3)cc2)CC1,MIC,,,,103317,8 µg/mL
COc1ccc2oc(=O)n(-c3ccc(C)cc3)c(=O)c2c1,MIC,,,,CNCTC MY330/88,62.5 µM
CC[C@H]1OC(=O)[C@H](C)[C@@H](O[C@H]2C[C@@](C)(OC)[C@@H](O)[C@H](C)O2)[C@H](C)[C@@H](O[C@@H]2O[C@H](C)C[C@H](N(C)C)[C@H]2O)[C@](C)(OC)C[C@@H](C)C(=O)[C@H](C)[C@@H](O)[C@]1(C)O,MIC,agar,Human monocyte-derived macrophages,,,8 µg/mL
CCSc1ncnc2ccccc12,MIC,,,,D 5/93,500 µM
CCC(C)S/C(N)=N/N=C/c1ccncc1,MIC,,,,CNCTC MY80/72,500 µM
FC(F)(F)c1ccc(-n2c(=S)oc3ccc(Br)cc3c2=S)cc1,MIC,,,21 d,MY330/88,125 µM
CC(C)=CCC/C(C)=C\CC(C/C=C(/C)CCC=C(C)C)C(=O)O,MIC,,,,,>1000 µM
O=C(Nc1cccc(F)c1)c1cc(Br)ccc1O,MIC,,,,CNCTC MY330/88,31 µM
O=C(/C=C/c1ccccc1)Nc1cccc(CN2CCOCC2)c1,MIC,,,,103317,8 µg/mL
CCCSc1ncnc2ccccc12,MIC,,,,D 5/93,125 µM
Cc1ccc(O)c(C(=S)NCc2ccccc2)c1,MIC,,,,MY330/88,1 µg/mL
CCCCC(C(=O)O)c1ccccc1,MIC,,,,,>100 µM
CCS/C(N)=N/N=C/c1nc2ccccc2o1,MIC,,,,CNCTC D5/93,63 µM
CN(C)c1ccc(NC(=O)c2cc([N+](=O)[O-])ccc2O)cc1,MIC,,,,CNCTC MY330/88,500 µM
N#C/C(=C\c1ccc(Br)cc1)n1nnc2ccccc21,EC50,,,,,>12.5 µg/mL
O=c1oc2ccc(F)cc2c(=S)n1-c1ccc(Cl)cc1,MIC,,,14 d,MY330/88,4 µM
Oc1ccc(CCN=C=S)cc1,MIC,visual reading,,,,32 µg/mL
CC(=O)Oc1ccccc1C(=O)Nc1cnccn1,MIC,resazurin,,,,>100 µg/mL
CCCCCCCCCCCCC#Cc1cn([C@H]2C[C@H](O)[C@@H](CO)O2)c(=O)[nH]c1=O,MIC90,,,,,>100 µg/mL

Repeating the final 9 entries:

{"smiles": "Cc1ccc(O)c(C(=S)NCc2ccccc2)c1", "read-out": "MIC", "strain": "MY330/88", "result": "1 µg/mL"}
{"smiles": "CCCCC(C(=O)O)c1ccccc1", "read-out": "MIC", "result": ">100 µM"}
{"smiles": "CCS/C(N)=N/N=C/c1nc2ccccc2o1", "read-out": "MIC", "strain": "CNCTC D5/93", "result": "63 µM"}
{"smiles": "CN(C)c1ccc(NC(=O)c2cc([N+](=O)[O-])ccc2O)cc1", "read-out": "MIC", "strain": "CNCTC MY330/88", "result": "500 µM"}
{"smiles": "N#C/C(=C\\c1ccc(Br)cc1)n1nnc2ccccc21", "read-out": "EC50", "result": ">12.5 µg/mL"}
{"smiles": "O=c1oc2ccc(F)cc2c(=S)n1-c1ccc(Cl)cc1", "read-out": "MIC", "conditions": "14 d", "strain": "MY330/88", "result": "4 µM"}
{"smiles": "Oc1ccc(CCN=C=S)cc1", "read-out": "MIC", "read by": "visual reading", "result": "32 µg/mL"}
{"smiles": "CC(=O)Oc1ccccc1C(=O)Nc1cnccn1", "read-out": "MIC", "read by": "resazurin", "result": ">100 µg/mL"}
{"smiles": "CCCCCCCCCCCCC#Cc1cn([C@H]2C[C@H](O)[C@@H](CO)O2)c(=O)[nH]c1=O", "read-out": "MIC90", "result": ">100 µg/mL"}